## Kdimer by position in the HIV-1 leader RNA

Values reported by Ye et al. 2022 (doi:10.1038/s41594-022-00746-2).

Sequence of the HIV-1 NL4-3 5' RNA, positions 1 to 437, as numbered in the source:
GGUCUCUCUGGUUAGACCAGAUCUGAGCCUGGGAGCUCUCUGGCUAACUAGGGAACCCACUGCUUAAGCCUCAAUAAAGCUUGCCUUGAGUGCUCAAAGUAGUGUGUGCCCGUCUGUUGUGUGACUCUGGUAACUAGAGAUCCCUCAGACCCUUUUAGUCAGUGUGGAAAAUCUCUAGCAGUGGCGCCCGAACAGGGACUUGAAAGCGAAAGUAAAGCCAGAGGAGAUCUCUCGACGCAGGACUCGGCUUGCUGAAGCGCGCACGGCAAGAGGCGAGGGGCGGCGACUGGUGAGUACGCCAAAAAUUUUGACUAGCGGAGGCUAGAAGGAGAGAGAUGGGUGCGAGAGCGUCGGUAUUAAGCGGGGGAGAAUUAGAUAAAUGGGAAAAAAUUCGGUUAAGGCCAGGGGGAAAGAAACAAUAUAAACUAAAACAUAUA

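Mutant RNA libraries with 1G, 2G or 3G starts, with or without cap, were folded at 37 °C for 30 min. High salt was 300 mM KCl and 5 mM MgCl2, low salt 40 mM KCl and 0.1 mM MgCl2; monomer and dimer were parted on a native gel. Mutation frequencies in the two bands give Kdimer.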

Scale: median log2 Kdimer over the changes at a position; positive = changes inhibit dimerization, negative = changes enhance it. One numbering serves 1G, 2G and 3G. A position is written with its base where known. The source gives no letters past position 437.

position | domain | 1G capped high-salt | 2G uncapped low-salt | 1G uncapped low-salt
512 | none | 0.13 | -0.11 | -0.01
U176 | PBS | -0.21 | -0.27 | 0.17
A410 | none | 0.09 | 0.03 | 0.06
A21 | TAR | 0.13 | -0.03 | -0.10
C248 | SL1 | 0.72 | 0.61 | 0.71
G137 | PBS | -0.13 | 0.76 | 0.63
493 | none | 0.11 | 0.07 | 0.11
G251 | SL1 | 3.65 | 6.08 | 4.50
499 | none | 0.19 | 0.09 | -0.02
G272 | SL1 | -0.59 | -0.50 | -0.44
U174 | PBS | -0.28 | -0.56 | -0.57
C312 | SL3 | 0.20 | 0.25 | 0.23
A210 | PBS | 0.04 | -0.18 | -0.13
U30 | TAR | 0.09 | -0.09 | -0.47
462 | none | 0.05 | 0.05 | -0.01
G184 | PBS | 0.29 | 0.46 | 0.36
G130 | PAS | 0.15 | 0.41 | 0.19
C143 | PBS | -0.13 | 0.37 | 0.33
G90 | PolyA | 0.12 | -0.36 | -0.29
C134 | PBS | -0.15 | -0.16 | -0.09
502 | none | 0.02 | 0.14 | -0.13
U71 | PolyA | 0.48 | 0.02 | 0.04
C231 | CU | -0.19 | 0.05 | 0.05
G83 | PolyA | -0.26 | -0.28 | -0.25
A194 | PBS | 0.13 | 0.39 | 0.34
A242 | none | 0.80 | 1.96 | 1.52
A220 | antiPAS | 0.08 | -0.09 | -0.07
G162 | PBS | 0.07 | -0.45 | -0.44
U232 | CU | 0.18 | 1.04 | 0.86
U135 | PBS | -0.08 | -0.04 | -0.06
441 | none | 0.11 | -0.05 | -0.02
A418 | none | 0.09 | -0.05 | 0.11
G92 | PolyA | 0.79 | 0.64 | 0.41
C69 | PolyA | 0.25 | 0.09 | 0.20
C48 | TAR | -0.31 | -0.69 | -0.46
C125 | PAS | -0.37 | 0.47 | 0.49
A168 | PBS | 0.07 | 0.39 | 0.25
C297 | SL2 | -0.25 | 0.02 | -0.04
G277 | SL1 | 2.57 | 2.28 | 2.38
A430 | none | -0.03 | -0.09 | 0.03
G282 | none | 0.43 | 1.07 | 0.93
C432 | none | 0.00 | -0.02 | 0.00
A380 | none | 0.08 | -0.09 | -0.14
A326 | none | 0.08 | -0.11 | -0.09
G361 | none | 0.10 | -0.07 | -0.22
A286 | SL2 | 0.45 | 0.49 | 0.35
U86 | PolyA | 0.10 | 0.08 | 0.16
C233 | CU | 0.78 | 0.85 | 0.78
C144 | PBS | -0.03 | 0.09 | -0.02

Extract of 4 entries:

| position | domain | 1G capped high-salt | 2G uncapped low-salt | 1G uncapped low-salt |
|---|---|---|---|---|
| A326 | none | 0.08 | -0.11 | -0.09 |
| C297 | SL2 | -0.25 | 0.02 | -0.04 |
| G83 | PolyA | -0.26 | -0.28 | -0.25 |
| U30 | TAR | 0.09 | -0.09 | -0.47 |